# Test results: PubChem BioAssay AID504690 (Sanford-Burnham Center for Chemical Genomics, 2011)
# The list shows a part of the results, in another mix than the full data. Calls of active or inactive are those of the source.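 The calls were made as follows: active = inhibition reaching at least a set limit at 20 µM in the primary screen (cut at about 59% in these data); inactive = the rest.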
# Tested on: glucose-6-phosphate dehydrogenase-6-phosphogluconolactonase (Plasmodium falciparum 3D7)
# Experiment: PfG6PD enzyme inhibitors, primary screen, biochemical, fluorescence intensity, uHTS (AID 504690);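 also: 0% = DMSO wells with substrate and 100% = DMSO wells lacking glucose-6-phosphate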
# Conditions: PfGluPho enzyme, NADPH resazurin-diaphorase fluorescence; at 20 µM; hits give high values
row,Structure (SMILES),inhibition
1,Cc1ccc(NP(=O)(Oc2cccc(C)c2)Oc2cccc(C)c2)nc1,inactive: -1.82%
2,CCNC(=S)/N=C(\N)N[N+](=O)[O-],inactive: -0.74%
3,O=C(NC1CCS(=O)(=O)C1)NP(=S)(Oc1ccccc1)Oc1ccccc1 (stereo unspecified),inactive: 8.97%
4,O=P1(N(CCCl)CCCl)OCCC2CCCCN21 (stereo unspecified),inactive: -10.4%
5,O=C(OC1CN2CCC1CC2)c1ccccc1 (stereo unspecified),inactive: -12%
6,CCC(=O)N1C2C3N(C(=O)CC)C1C1N(C(=O)CC)C(C(N1C(=O)CC)N3C(=O)CC)N2C(=O)CC,inactive: 0.31%
7,COC(=O)c1cc2c(s1)N=C(c1ccccc1)N(C)P2(=O)N1CCOCC1 (stereo unspecified),inactive: -9.06%
8,Cc1ccc(OP(=O)(Nc2ccccn2)Oc2ccc(C)cc2)cc1,inactive: -1.51%
9,CC(=O)NC(SC(=S)N(CC(C)C)CC(C)C)C(Cl)(Cl)Cl (stereo unspecified),inactive: 5.41%
10,Cc1ccccc1OP(=O)(Nc1ccccn1)Oc1ccccc1C,inactive: 6.91%
11,CC(NC(=O)COC(=O)C(O)(c1ccccc1)c1ccccc1)c1ccccc1 (stereo unspecified),inactive: 5.77%
12,CN(C)C(=O)Oc1noc2ccccc12,inactive: 8.97%
13,O=c1c2cc([N+](=O)[O-])ccc2[nH]c2c([N+](=O)[O-])cc([N+](=O)[O-])cc12,inactive: 30.1%
14,O=P(Nc1ccccn1)(c1ccc(Br)cc1)c1ccc(Br)cc1,inactive: -22.4%
15,CN(C)C1(CNC(=O)c2ccc(Cl)c(S(N)(=O)=O)c2)CCCCC1,inactive: -1.91%
16,COc1ccc(N)c([N+](=O)[O-])c1[N+](=O)[O-],inactive: 18.7%
17,O=P(Nc1nc2ccccc2s1)(c1ccccc1)c1ccccc1,inactive: -1.16%
18,C[C@H]1OP(=O)(Oc2ccccc2)[C@H](O)[C@H](O)[C@H]1N=[N+]=[N-] (stereo partly specified),inactive: 1.32%
19,O=[As](O)(c1ccccc1)c1ccc(O)cc1,inactive: -9.19%
20,O=[N+]([O-])c1ccc(O)c(/C=N/Nc2ccc([N+](=O)[O-])cc2[N+](=O)[O-])c1,inactive: -2.6%
21,O=[N+]([O-])c1ncn(CCn2cnc([N+](=O)[O-])n2)n1,inactive: -0.13%
22,CC(=O)NC(SC(=S)N(C)C)C(Cl)(Cl)Cl (stereo unspecified),inactive: -2.89%
23,O=C(OC1CN2CCC1CC2)c1cccc(Cl)c1 (stereo unspecified),inactive: -4.48%
24,Nc1ccc([As](=O)(O)c2ccc([N+](=O)[O-])cc2)cc1,inactive: -0.08%

row,Structure (SMILES),inhibition
1,C(Cc1nn[nH]n1)Cc1nn[nH]n1,inactive: -3.61%
2,CC(C)C(=O)NC(Sc1ccccc1)C(Cl)(Cl)Cl (stereo unspecified),inactive: -20.9%
3,O=P(Nc1nccs1)(c1ccccc1)c1ccccc1,inactive: 2.83%
4,c1nnnn1CCn1cnnn1,inactive: -1.3%
5,COc1ccc(C2=NCC(CBr)S2)cc1 (stereo unspecified),inactive: 51%
6,Cc1ccc(NP(=O)(Oc2ccccc2)Oc2ccccc2)nc1,inactive: 3.41%
7,CCc1nc2c(n1)c1c(non1O)c1c2no[n+]1[O-],inactive: -8.69%
8,O=[N+]([O-])c1cc([N+](=O)[O-])c(CCNc2ccccc2)c([N+](=O)[O-])c1,inactive: 36.8%
9,O=[N+]([O-])c1cccc2n[nH]nc12,inactive: -8.27%
10,CC(=O)N1C2C3N(C(C)=O)C1C1N(C(C)=O)C(C(N1C(C)=O)N3C(C)=O)N2C(C)=O,inactive: 1.52%
11,CCN(/C(=N/P(=O)(N1CCOCC1)N1CCOCC1)N1CCOCC1)c1ccc(OC)cc1,inactive: -6.94%
12,Nc1ccc([As](=O)(O)c2ccc(N)cc2)cc1,inactive: 4.51%
13,C[N+]1=C2C=CC=CC=C2SC12C([N+](=O)[O-])=CC([N+](=O)[O-])=C[C-]2[N+](=O)[O-] (stereo unspecified),active: 67.4%
14,c1cc(-c2nn[nH]n2)ccc1-c1nn[nH]n1,inactive: -51.2%
15,CC1CCN(C(=O)Oc2c(Cl)cc(Cl)c3cccnc23)CC1,inactive: 0.01%
16,CC(C)=N/N=C(\N)N[N+](=O)[O-],inactive: 6.7%
17,CC(C)c1nc(Nc2ccccc2)n(P(=O)(N(C)C)N(C)C)n1,inactive: -15.5%
18,CN(C)C(=O)OCCc1n(C)cc[n+]1C,inactive: -1.08%
19,O=P1(N(CCCl)CCCl)OCCCS1 (stereo unspecified),inactive: 1.7%
20,O=C(Nc1cc([As](=O)(O)O)ccc1O)c1ccccc1,inactive: -11%
21,O=[N+]([O-])c1ncn(CCn2ncnc2[N+](=O)[O-])n1,inactive: 5.28%
22,CC(C)(C)C(=O)NC(Sc1ccncn1)C(Cl)(Cl)Cl (stereo unspecified),inactive: 8.21%
23,O=C(O)CNc1ccc([As](=O)(O)O)cc1,inactive: -3.82%
24,O=[N+]([O-])c1cccc(NC2=NCC(CBr)S2)c1 (stereo unspecified),inactive: 7.8%

row,Structure (SMILES),inhibition
1,COC(=O)C1(C)COP(=O)(Nc2ccccc2)OC1 (stereo unspecified),inactive: -3.64%
2,CN(C)P(=O)(N(C)C)n1c(Nc2ccccc2)nnc1-c1ccccc1,inactive: 19.4%
3,O=P(Nc1nc2ccc(Cl)cc2s1)(c1ccccc1)c1ccccc1,inactive: -10.6%
4,O=C(O)c1ccccc1[As](=O)(O)O,inactive: -16.9%
5,CC(=O)Nc1ccc([As](=O)(O)O)cc1,inactive: -12.5%
6,CCCC1OP(N)(=O)OCC1CC (stereo unspecified),inactive: -20.2%
7,CCOP(=O)(Nc1ccccc1)OCC,inactive: -20.9%
8,Cc1cc(SC(NC(=O)c2ccc(F)cc2)C(Cl)(Cl)Cl)ncn1 (stereo unspecified),inactive: 31%
9,Cc1ccc(NP(=O)(Oc2ccccc2F)Oc2ccccc2F)nc1,inactive: 6.23%
10,CN(C(=O)Cc1ccc(Cl)c(Cl)c1)[C@H]1CCCC[C@@H]1N1CCCC1,inactive: 8.52%
11,Nc1cccc2ccc([As](=O)(O)O)cc12,inactive: 17.5%
12,CCN(N=Nc1nonc1N)c1nonc1N,inactive: -8.56%
13,CN(C(=O)Cc1ccc(Cl)c(Cl)c1)[C@H]1CCCC[C@H]1N1CCCC1,inactive: -5%
14,Cc1ccc(N/C(=N/P(=O)(N2CCOCC2)N2CCOCC2)N2CCOCC2)cc1,inactive: -20.2%
15,NC(=O)c1cc([N+](=O)[O-])cc([N+](=O)[O-])c1N,inactive: 13.1%
16,Clc1ccc(Cl)c(NC2=NCC(CBr)S2)c1 (stereo unspecified),inactive: 18.5%
17,CN1CCCC(OC(=O)C(c2ccccc2)c2ccccc2)C1 (stereo unspecified),inactive: -5.67%
18,COc1ccccc1OP(=O)(Nc1ccc(C)cn1)Oc1ccccc1OC,inactive: 1.43%
19,Cc1ccc(OP(=O)(Nc2nccs2)Oc2ccc(C)cc2)cc1,inactive: 3.8%
20,Oc1ccccc1CNc1ccccn1,inactive: -16.4%
21,O=C(NC(Sc1ccncn1)C(Cl)(Cl)Cl)c1ccccc1 (stereo unspecified),inactive: 7.24%
22,CC(C)CC(=O)NC(Sc1ccc(Cl)cc1)C(Cl)(Cl)Cl (stereo unspecified),inactive: 7.95%
23,Nc1cc(N)c2nonc2c1[N+](=O)[O-],inactive: 8.18%
